A mixed list of measured activities; the numbers were collected in NIAID ChemDB.

All rows: tests on isolated targets; agent: HIV-1; target: Protease; endpoint: Ki

Neighbouring rows are from separate reports. An empty or dashed field is not shown.

| SMILES | strain or isolate | mutations | read by | setting | result |
|---|---|---|---|---|---|
| C/C(=N\O)c1cccc(CN2[C@H](COc3ccccc3)[C@H](O)[C@@H](O)[C@@H](COc3ccccc3)N(Cc3cccc(/C(C)=N/O)c3)S2(=O)=O)c1 | - | PR-G48V L90M | - | - | 0.11 µM |
| CC[C@H](C)[C@H](NC(=O)[C@@H]1CCCN1C[C@@H](O)[C@H](Cc1ccccc1)NC(=O)[C@H](CC(N)=O)NC(=O)[C@H](CC(C)C)NC(=O)[C@H](CO)NC(C)=O)C(=O)N[C@H](C(=O)OC)C(C)C | - | - | fluorescence | - | 0.013 µM |
| CCC(=O)c1cccc(CN2C(=O)N(Cc3cccc(C(=O)CC)c3)[C@H](Cc3ccccc3)[C@H](O)[C@@H](O)[C@H]2Cc2ccccc2)c1 | RF | - | - | - | 0.00021 µM |
| CNC(=O)[C@@H](NC(=O)[C@H](Sc1cccs1)[C@H](O)[C@@H](O)[C@@H](Sc1cccs1)C(=O)N[C@H](C(=O)NC)C(C)C)C(C)C | - | - | fluorescence | - | 0.0042 µM |
| CNC(=O)[C@@H](NC(=O)[C@H](OCc1ccccc1)[C@@H](O)[C@H](O)[C@@H](OCc1ccccc1)C(=O)N[C@H](C(=O)NC)C(C)C)C(C)C | - | - | substrate cleavage | - | 0.04 µM |
| Cc1ccc(S(=O)(=O)N(CC(C)C)[C@@H](CCCCNC(=O)[C@H](Cc2ccccc2)NC(=O)NCCO)C(=O)O)cc1 | - | - | FRET | - | 0.0021 µM |
| COc1c(O)cc2oc3cc(O)c(CC=C(C)C)c(O)c3c(=O)c2c1CC=C(C)C | - | - | HPLC | - | 10.7 ± 0.95 µM |
| CCC(c1ccccc1)c1c(O)c2ccccc2oc1=O | - | - | - | - | 1 µM |
| CC(C)CNC(=O)[C@H](Cc1ccccc1)NCC(O)[C@@H]1Cc2ccc(cc2)OCCCC(=O)N[C@@H](CC(N)=O)C(=O)N1 | - | - | - | - | 0.8 µM |
| C=C1[C@@H](C)[C@H]2[C@H](Cc3ccccc3)NC(=O)[C@]23[C@H](OC(C)=O)/C=C/[C@@H](C)C[C@@H](C)C/C=C/[C@H]3[C@@H]1O | - | - | - | - | 1 µM |
| CC(C)[C@H](NC(=O)N(C)Cc1ccccn1)C(=O)N[C@@H](Cc1ccccc1)[C@H](O)[C@H](O)[C@H](Cc1ccccc1)NC(=O)[C@@H](NC(=O)N(C)Cc1ccccn1)C(C)C | - | - | fluorescence | - | 0.000084 µM |
| O=C(N[C@H]1c2ccccc2C[C@H]1O)[C@H](Cc1ccccc1)C[C@H](O)CN1C(=O)[C@@H](Cc2ccccc2)C[C@@H]1Cc1ccccc1 | - | - | - | - | 0.00005 µM |
| CC(C)(C)NC(=O)[C@H]1N(C(=O)[C@@H](O)[C@H](Cc2ccccc2)NC(=O)[C@H](CC(N)=O)NC(=O)COc2cccc3cnccc23)CSC1(C)C | - | - | HPLC | - | 0.000349 µM |
| ON=C1N(Cc2ccccc2)[C@H](Cc2ccccc2)[C@H](O)[C@@H](O)[C@@H](Cc2ccccc2)N1Cc1ccccc1 | - | - | - | - | 0.042 µM |
| O=C1N(Cc2cccc(/C=N/O)c2)[C@H](Cc2ccccc2)[C@H](O)[C@@H](O)[C@@H](Cc2ccccc2)N1Cc1cccc(/C=N/O)c1 | RF | - | - | - | 0.00001 µM |
| CC(C)(C)NC(=O)[C@H]1N(C(=O)[C@@H](O)[C@H](Cc2ccccc2)NC(=O)[C@H](CC(N)=O)NC(=O)COc2cccc(Nc3ccccc3)c2)CSC1(C)C | - | - | HPLC | - | 0.000058 µM |
| CC[C@H](C)[C@H](NC(=O)[C@@H]1CCCN1C[C@H](O)[C@H](Cc1ccccc1)NC(=O)[C@H](CC(N)=O)NC(=O)[C@H](CC(C)C)NC(=O)[C@H](CO)NC(C)=O)C(=O)N[C@H](C(=O)OC)C(C)C | - | - | fluorescence | - | 0.001 µM |
| O=C(NC(Cc1ccccc1)P(=O)(O)CC(Cc1ccccc1)C(=O)O)c1ccccc1 | - | - | - | pH 6.5 | 26 µM |
| CCCC(=O)c1cccc(CN2C(=O)N(Cc3cccc(C(=O)CCC)c3)[C@H](Cc3ccccc3)[C@H](O)[C@@H](O)[C@H]2Cc2ccccc2)c1 | RF | - | fluorescence | - | 0.0014 µM |
| CCCC1(CCc2ccccc2)CC(O)=C(C(c2cccc(NS(=O)(=O)c3ccccn3)c2)C(C)(C)C)C(=O)O1 | - | - | - | - | 0.00009 µM |
| CC[C@H](C)[C@H](NC(=O)[C@H](Cc1ccccc1)NC[C@@H](O)[C@H](Cc1ccccc1)NC(=O)[C@@H](NC(=O)[C@H](CC(C)C)NC(C)=O)C(C)C)C(=O)N[C@H](C(N)=O)C(C)C | - | - | fluorescence | - | 0.0015 µM |
| CC(C)[C@H](NC(=O)[C@@H](NC(=O)C1CCCC1P(=O)(O)C(NC(=O)OCc1ccccc1)c1ccccc1)C(C)C)C(N)=O | - | - | - | pH 6.5 | >100 µM |
| CNC(=O)[C@@H](NC(=O)[C@H](OCc1ccccc1)[C@H](O)[C@@H](O)[C@@H](OCc1ccccc1)C(=O)N[C@H]1c2ccccc2C[C@H]1O)C(C)C | - | PR-G48V L90M | - | - | 0.0015 µM |
| CCCC1(CCC)CC(O)=C(C(CC)c2cccc(NS(=O)(=O)c3ccc(C#N)cn3)c2)C(=O)O1 | - | - | - | - | 0.0001 µM |
| CC[C@H](C)[C@@H]1NC(=O)[C@@H](NC[C@@H](O)[C@H](Cc2ccccc2)NC(=O)[C@@H](NC(=O)[C@H](CC(C)C)NC(C)=O)C(C)C)Cc2ccc(cc2)OCCCCNC1=O | - | - | fluorescence | - | 0.0015 µM |
| NCCCC[C@H](NC(=O)[C@@H](N)CCC(=O)O)C(=O)N[C@@H](Cc1ccccc1)C(=O)O | - | - | - | - | 2010 µM |
| CC[C@H](NC(=O)COc1cccc2cnccc12)C(=O)N[C@@H](Cc1ccccc1)[C@H](O)C(=O)N1CSC[C@H]1C(=O)NC(C)(C)C | - | - | HPLC | - | 0.002144 µM |
| Nc1cccc(CN2C(=O)N(Cc3cccc(-c4ccn[nH]4)c3)[C@H](Cc3ccccc3)[C@H](O)[C@@H](O)[C@H]2Cc2ccccc2)c1 | RF | - | - | - | 0.000035 µM |
| CC(C)[C@H](NC(=O)N(C)Cc1ccccn1)C(=O)N[C@@H](Cc1ccccc1)C[C@H](O)[C@H](Cc1ccccc1)NC(=O)[C@@H](NC(=O)N(C)Cc1ccccn1)C(C)C | - | - | fluorescence | - | 0.000035 µM |
| CC(C)(C)OC(=O)N[C@@H](Cc1ccccc1)[C@H](O)CNC[C@@H](O)[C@H](Cc1ccc(OCC(=O)N2CCOCC2)cc1)NC(=O)OC(C)(C)C | - | - | substrate cleavage | - | 0.034 µM |
| COC(=O)c1cccc(CN2C(=O)N(Cc3cccc(-c4ccn[nH]4)c3)[C@H](Cc3ccccc3)[C@H](O)[C@@H](O)[C@H]2Cc2ccccc2)c1 | RF | - | fluorescence | - | 0.00014 µM |
| CC[C@H](C)[C@H](NC(=O)OCc1ccccc1)C(=O)N[C@@H](Cc1cnc[nH]1)C(=O)NC(Cc1ccccc1)P(=O)(O)CC(Cc1ccccc1)C(=O)N[C@H](C(=O)N[C@H](C(N)=O)C(C)C)C(C)C | - | - | - | pH 4.5 | 0.0004 µM |
| CCC(C)[C@H](NC(=O)[C@H](C(C)C)[C@@H](O)[C@H](O)[C@H](CC1CCCCC1)NC(=O)c1ccccc1OCCCCC[C@@H]1SC[C@@H]2NC(=O)NC21)C(=O)NCc1ccccn1 | - | - | - | - | 0.053 µM |
| CCC(C)[C@H](NC(=O)CCCCCCCCCCCCCCC(=O)N[C@@H](CC(C)C)C(=O)N[C@@H](CC(N)=O)C(=O)N[C@@H](Cc1ccccc1)C(=O)O)C(=O)N[C@H](C(=O)N[C@@H](CC(C)C)C(=O)N[C@@H](Cc1c[nH]c2ccccc12)C(=O)O)C(C)O | - | - | fluorescence | - | 0.87 µM |
| O=C1N(Cc2ccc(CO)cc2)[C@H](COc2ccccc2)[C@H](O)[C@@H](O)[C@@H](COc2ccccc2)N1Cc1ccc(CO)cc1 | IIIB | PR-L90M PR-I84V | fluorescence | - | 0.0031 µM |
| CC[C@H](C)C(NC(=O)C1CCCN1C[C@H](O)[C@@H]1CSSC[C@H](NC(C)=O)C(=O)NCC(=O)N[C@@H](CC(N)=O)C(=O)N1)C(=O)N[C@H](C(N)=O)C(C)C | - | - | - | - | 8.1 µM |
| COc1cc(CN2C(=O)N(Cc3cccc(C(=O)Nc4cccc(C)n4)c3)[C@H](Cc3ccccc3)[C@H](O)[C@@H](O)[C@H]2Cc2ccccc2)cc(OC)c1 | - | - | fluorescence | - | 0.007 µM |
| O=S1(=O)N(Cc2ccc(-c3cccs3)cc2)[C@H](COc2ccccc2)[C@H](O)[C@@H](O)[C@@H](COc2ccccc2)N1Cc1ccc(-c2cccs2)cc1 | - | PR-I84V | - | - | 28 µM |
| O=C1N(Cc2ccccc2)C[C@@H](O)[C@@H](Cc2ccccc2)N1Cc1ccccc1 | RF | - | HPLC | - | 2.5 µM |
| CC(C)(C)NC(=O)[C@H]1N(C(=O)[C@@H](O)[C@H](Cc2ccccc2)NC(=O)[C@H](CC(N)=O)NC(=O)COc2cccc3ccccc23)CSC1(C)C | - | - | - | - | 0.0000068 µM |
| CC[C@H](NC(=O)COc1cccc(N(C)C)c1)C(=O)N[C@@H](Cc1ccccc1)[C@H](O)C(=O)N1CSC(C)(C)[C@H]1C(=O)NC(C)(C)C | - | - | HPLC | - | 0.000399 µM |
| CCCC1(CCc2ccccc2)CC(O)=C(C(CC)c2cccc(NS(=O)(=O)CCC)c2)C(=O)O1 | - | - | fluorescence | - | >1 µM |
| CC[C@H](C)[C@H](NC(=O)[C@@H]1CCCN1C[C@H](O)[C@H](Cc1ccccc1)NC(=O)[C@H](CC(N)=O)NC(=O)[C@H](CC(C)C)NC(C)=O)C(=O)N[C@H](C(N)=O)C(C)C | - | - | fluorescence | - | 0.003 µM |
| COC(=O)[C@@H](NC(=O)[C@@H](NC(=O)CC[C@H](O)[C@H](Cc1ccccc1)NC(=O)[C@H](C)NC(=O)[C@H](C)NC(=O)OCc1ccccc1)C(C)C)C(C)C | - | - | - | - | 0.048 µM |
| CCCC1(CCc2ccccc2)CC(O)=C(C(c2cccc(NS(=O)(=O)c3ccc(C#N)cn3)c2)C(C)(C)C)C(=O)O1 | - | - | - | - | 0.00019 µM |
| COC(=O)c1ccc(CN2[C@H](COc3ccccc3)[C@H](O)[C@@H](O)[C@@H](COc3ccccc3)N(Cc3ccc(C(=O)OC)cc3)S2(=O)=O)cc1 | - | PR-V82A | - | - | 0.092 µM |
| O=C1N(Cc2ccc(O)cc2)[C@H](Cc2ccccc2)[C@H](O)[C@@H](O)[C@@H](Cc2ccccc2)N1Cc1cccc(-c2ccn[nH]2)c1 | RF | - | - | - | 0.000021 µM |
| CCCC1(CCc2ccccc2)CC(O)=C(C(c2cccc(NS(=O)(=O)c3ccc(C#N)cn3)c2)C2CC2)C(=O)O1 | - | - | - | - | 0.000007 µM |

Repeating the final 7 entries:

SMILES,strain or isolate,mutations,read by,setting,result
CCCC1(CCc2ccccc2)CC(O)=C(C(CC)c2cccc(NS(=O)(=O)CCC)c2)C(=O)O1,-,-,fluorescence,-,>1 µM
CC[C@H](C)[C@H](NC(=O)[C@@H]1CCCN1C[C@H](O)[C@H](Cc1ccccc1)NC(=O)[C@H](CC(N)=O)NC(=O)[C@H](CC(C)C)NC(C)=O)C(=O)N[C@H](C(N)=O)C(C)C,-,-,fluorescence,-,0.003 µM
COC(=O)[C@@H](NC(=O)[C@@H](NC(=O)CC[C@H](O)[C@H](Cc1ccccc1)NC(=O)[C@H](C)NC(=O)[C@H](C)NC(=O)OCc1ccccc1)C(C)C)C(C)C,-,-,-,-,0.048 µM
CCCC1(CCc2ccccc2)CC(O)=C(C(c2cccc(NS(=O)(=O)c3ccc(C#N)cn3)c2)C(C)(C)C)C(=O)O1,-,-,-,-,0.00019 µM
COC(=O)c1ccc(CN2[C@H](COc3ccccc3)[C@H](O)[C@@H](O)[C@@H](COc3ccccc3)N(Cc3ccc(C(=O)OC)cc3)S2(=O)=O)cc1,-,PR-V82A,-,-,0.092 µM
O=C1N(Cc2ccc(O)cc2)[C@H](Cc2ccccc2)[C@H](O)[C@@H](O)[C@@H](Cc2ccccc2)N1Cc1cccc(-c2ccn[nH]2)c1,RF,-,-,-,0.000021 µM
CCCC1(CCc2ccccc2)CC(O)=C(C(c2cccc(NS(=O)(=O)c3ccc(C#N)cn3)c2)C2CC2)C(=O)O1,-,-,-,-,0.000007 µM